Anti-infective test results gathered from many reports (values: NIAID ChemDB through PubChem).

All rows: whole-cell or culture tests; organism: Staphylococcus aureus; read-out: MIC

Neighbouring rows are from separate reports.

SMILES,strain or isolate,value
CCCNCCNc1cc2c(cc1F)c(=O)c(C(=O)O)cn2C1CC1,ATCC 5278 (methicillin-resistant),>100 µg/mL
CSCc1cccc(N2CCN(c3cc4nc5c(cc4cc3F)c(=O)c(C(=O)O)cn5C)CC2)c1,IP8203 (quinolone-sensitive),4 µg/mL
CC(=S)NC[C@H]1CN(c2ccc(-c3nnc(CN(C)C=O)s3)c(F)c2)C(=O)O1,UC9213 (methicillin-susceptible),<0.5 µg/mL
C[C@H]1NC2CC1N(c1nc3c(cc1F)c(=O)c(C(=O)O)cn3C(C)(C)C)C2,A9537,0.03 µg/mL
O=C(O)NC[C@H]1CC(c2ccc(-n3ccnc3)c(F)c2)=NO1,UC9218,2 µg/mL
CNC(=O)CC1NC(=O)c2csc(n2)-c2ccc(-c3nc(COC(=O)NCCCC(C)=O)cs3)nc2-c2csc(n2)-c2csc(n2)C(C(O)c2ccccc2)NC(=O)CNC(=O)c2nc(sc2CSC)C(C(C)C)NC(=O)c2nc1sc2C,ATCC 33591 (methicillin-resistant),0.25 µg/mL
O=C(CBr)NC[C@H]1CN(c2ccc3c(c2)-n2cccc2COC3)C(=O)O1,ATCC 29213 (MSSA),4 µg/mL
CO/N=C1\CN(c2nc3c(cc2F)c(=O)c(C(=O)O)cn3C2CC2)CC1CN,KU2242,0.063 µg/mL
O=C(CO)N1CC=C(c2c(F)cc(N3C[C@H](COc4ccon4)OC3=O)cc2F)CC1,122 (novobiocin-resistant),1 µg/mL
CC[C@H]1OC(=O)C[C@@H](O)[C@H](C)[C@@H](O[C@@H]2O[C@H](C)[C@@H](O)[C@H](N(C)C)[C@H]2O)C(C=O)C[C@@H](C)C(=O)/C=C/C(C)=C/[C@@H]1COC/C=C/c1cnc2ccccc2c1,25923 (erythromycin-susceptible),0.5 µg/mL
CC(=O)NC[C@H]1CN(c2ccc3c(c2)-n2cccc2COC3)C(=O)O1,ATCC 29213 (MSSA),2 µg/mL
O=C(C(O)Cn1cccc1)N1CC=C(c2ccc(N3C[C@H](COc4ccon4)OC3=O)cc2F)CC1,078 (oxford),1 µg/mL
C=CC(=O)NC[C@H]1CN(c2ccc3c(c2)-n2cccc2COC3)C(=O)O1,ATCC 49951 (SMITH),2 µg/mL
CC[C@H]1OC(=O)C[C@@H](O)[C@H](C)[C@@H](O[C@@H]2O[C@H](C)[C@@H](O)[C@H](N(C)C)[C@H]2O)C(C=O)C[C@@H](C)C(=O)/C=C/C(C)=C/[C@@H]1COC(=O)Nc1ccc(Br)cc1,25923 (erythromycin-susceptible),0.5 µg/mL
CC(=O)NC[C@H]1CN(c2ccc(SCCN3CCOCC3)c(F)c2)C(=O)O1,ATCC 29213 (linezolid-resistant),>64 µg/mL
COc1c(CN(C)C)cccc1C1OC(c2ccncc2)=NN1C(C)=Nc1ccc(F)cc1,MTCC96,6.25 µg/mL
O=C(CO)N[C@H]1CCN(c2ccc(N3C[C@H](COc4ccon4)OC3=O)cc2F)C1,122 (novobiocin-resistant),4 µg/mL
CC(O)C(=O)N1CC=C(c2ccc(N3C[C@H](COc4cnsn4)OC3=O)cc2F)CC1,078 (oxford),0.25 µg/mL
C[C@@H]1N[C@H]2C[C@@H]1N(c1nc3c(cc1F)c(=O)c(C(=O)O)cn3C(C)(C)C)C2,A9537,0.06 µg/mL
CC[C@H]1OC(=O)C[C@@H](O)[C@H](C)[C@@H](O[C@@H]2O[C@H](C)[C@@H](O)[C@H](N(C)C)[C@H]2O)C(C=O)C[C@@H](C)C(=O)/C=C/C(C)=C/[C@@H]1COC(=O)NCCc1ccccc1,25923 (erythromycin-susceptible),0.25 µg/mL
O=C(O)NC[C@H]1CC(c2ccc(-n3cccc3)c(F)c2)=NO1,UC9218,2 µg/mL
CC[C@H]1OC(=O)[C@H](C)[C@@H](O[C@H]2C[C@@](C)(OC)[C@@H](O)[C@H](C)O2)[C@H](C)[C@@H](O[C@H]2O[C@@H](C)C[C@@H](N(C)C)[C@@H]2O)[C@](C)(O)C[C@@H](C)C(=O)[C@H](C)[C@@H](O)[C@]1(C)O,33591 (erythromycin-resistant),>64 µg/mL
CC1=NN=C(OC[C@H]2CN(c3ccc(C4=CCOCC4)c(F)c3)C(=O)O2)C1,122 (novobiocin-resistant),8 µg/mL
CC[C@H]1OC(=O)C[C@@H](O)[C@H](C)[C@@H](O[C@@H]2O[C@H](C)[C@@H](O)[C@H](N(C)C)[C@H]2O)C(C=O)C[C@@H](C)C(=O)/C=C/C(C)=C/[C@@H]1COCOC,25923 (erythromycin-susceptible),0.5 µg/mL
CC(=O)NC[C@H]1CN(c2ccc(SCc3ncon3)c(F)c2)C(=O)O1,ATCC 29213 (linezolid-resistant),>64 µg/mL
O=C(CO)N1CCN(c2ccc(N3C[C@H](CNc4ccon4)OC3=O)cc2F)CC1,122 (novobiocin-resistant),4 µg/mL
CCOC(=S)NC[C@H]1CN(c2ccc3c(c2)-n2cccc2COC3)C(=O)O1,ATCC 29213 (MSSA),4 µg/mL
COC(=O)N1CC=C(c2ccc(C3=NO[C@@H](CNC(=O)O)C3)cc2)CC1,UC9218,2 µg/mL
CNC(=O)CC1NC(=O)c2csc(n2)-c2ccc(-c3nc(COC(=O)N(C)CCCC(C)=O)cs3)nc2-c2csc(n2)-c2csc(n2)C(C(O)c2ccccc2)NC(=O)CNC(=O)c2nc(sc2CSc2nnc(C)s2)C(C(C)C)NC(=O)c2nc1sc2C,ATCC 33591 (methicillin-resistant),0.5 µg/mL
COc1c(CN(C)C)cccc1C1OC(c2ccncc2)=NN1C(C)=Nc1ccccc1,MTCC 121,6.25 µg/mL
CC(=O)NC[C@H]1CN(c2ccc(SCSC#N)c(F)c2)C(=O)O1,ATCC 29213 (linezolid-resistant),>64 µg/mL
CNC(=O)CC1NC(=O)c2csc(n2)-c2ccc(-c3nc(C(=O)NCCCCCC(=O)O)cs3)nc2-c2csc(n2)-c2csc(n2)C(C(O)c2ccccc2)NC(=O)CNC(=O)c2nc(sc2CSc2cccc[n+]2[O-])C(C(C)C)NC(=O)c2nc1sc2C,ATCC 33591 (methicillin-resistant),1 µg/mL
CS(=O)(=O)N[C@H]1CCN(c2ccc(N3C[C@H](COc4ccon4)OC3=O)cc2F)C1,078 (oxford),2 µg/mL
CNC(=O)CC1NC(=O)c2csc(n2)-c2ccc(-c3nc(C(=O)NCCC(=O)OC(C)(C)C)cs3)nc2-c2csc(n2)-c2csc(n2)C(C(O)c2ccccc2)NC(=O)CNC(=O)c2nc(sc2CSSc2nnnn2CC(=O)O)C(C(C)C)NC(=O)c2nc1sc2C,ATCC 33591 (methicillin-resistant),>16 µg/mL
CCCCC(CO)Nc1cc2c(cc1F)c(=O)c(C(=O)O)cn2C1CC1,ATCC 5278 (methicillin-resistant),>100 µg/mL
CC(=O)NC[C@H]1CN(c2ccc(C3CCS(=O)(=O)CC3)c(F)c2)C(=O)O1,UC 12673,2 µg/mL
CNC(=O)CC1NC(=O)c2csc(n2)-c2ccc(-c3nc(C(=O)NCCC(=O)OC(C)(C)C)cs3)nc2-c2csc(n2)-c2csc(n2)C(C(O)c2ccccc2)NC(=O)CNC(=O)c2nc(sc2CSSC(C)C(=O)NCC(=O)O)C(C(C)C)NC(=O)c2nc1sc2C,ATCC 33591 (methicillin-resistant),>16 µg/mL
CC[C@H]1OC(=O)C[C@@H](O)[C@H](C)[C@@H](O[C@@H]2O[C@H](C)[C@@H](O)[C@H](N(C)C)[C@H]2O)C(C=O)C[C@@H](C)C(=O)/C=C/C(C)=C/[C@@H]1COC(=O)Nc1ccccc1,25923 (erythromycin-susceptible),0.25 µg/mL
COCCCNc1cc2c(cc1F)c(=O)c(C(=O)O)cn2C1CC1,ATCC 5278 (methicillin-resistant),>100 µg/mL
CNCc1nnc(-c2ccc(N3C[C@H](CNC(C)=S)OC3=O)cc2F)s1,UC9213 (methicillin-susceptible),<0.5 µg/mL
O=C(C(O)Cn1cccn1)N1CC=C(c2c(F)cc(N3C[C@H](COc4ccon4)OC3=O)cc2F)CC1,004 (methicillin quinolone-resistant),1 µg/mL
CC(=O)NC[C@H]1CN(c2ccc3c(c2)OCc2nccn2-3)C(=O)O1,133,0.25 µg/mL
COc1ccc(CNc2cc3c(cc2F)c(=O)c(C(=O)O)cn3C2CC2)cc1OC,ATCC 6538P,>100 µg/mL
CCOC(=O)C(C)(C)Sc1ccc(N2C[C@H](CNC(C)=O)OC2=O)cc1F,ATCC 29213 (linezolid-resistant),>64 µg/mL
CC(=S)NC[C@H]1CN(c2ccc(-c3nnc(C(C)(C)N)s3)c(F)c2)C(=O)O1,UC9213 (methicillin-susceptible),4 µg/mL
COc1ccc(-c2ccc(N3CC(CNC(C)=O)CC3=O)cc2)ccc1=O,UC 12673,>64 µg/mL
CCC(=O)NC[C@H]1CN(c2ccc(C3CCS(=O)(=O)CC3)c(F)c2)C(=O)O1,UC9213,4 µg/mL
CC(C)OC(=S)NC[C@H]1CN(c2ccc3c(c2)-n2cccc2COC3)C(=O)O1,ATCC 49951 (SMITH),>32 µg/mL
O=C(O)NC[C@H]1CC(c2cc(F)c(N3CCN(C(=O)CO)CC3)c(F)c2)=NO1,UC9213,2 µg/mL
CNC(=O)CC1NC(=O)c2csc(n2)-c2ccc(-c3nc(C(=O)NCCC(=O)O)cs3)nc2-c2csc(n2)-c2csc(n2)C(C(O)c2ccccc2)NC(=O)CNC(=O)c2nc(sc2CSc2ncccn2)C(C(C)C)NC(=O)c2nc1sc2C,ATCC 33591 (methicillin-resistant),0.125 µg/mL
CC(C)NCCCNc1cc2c(cc1F)c(=O)c(C(=O)O)cn2C1CC1,ATCC 6538P,6.25 µg/mL
CC(=O)NC[C@H]1CN(c2ccc(Sc3sccc3[N+](=O)[O-])c(F)c2)C(=O)O1,ATCC 29213 (linezolid-resistant),>64 µg/mL
CS(=O)(=O)N[C@H]1CCN(c2ccc(N3C[C@H](CNc4ccon4)OC3=O)cc2F)C1,078 (oxford),0.25 µg/mL
CC[C@H]1OC(=O)[C@H](C)C(=O)[C@H](C)[C@@H](O[C@@H]2O[C@H](C)C[C@H](N(C)C)[C@H]2O)[C@@]2(C)C[C@@H](C)C(=NC(C)=O)[C@H](C)C(OC/C=C/CO2)[C@]1(C)O,33591 (erythromycin methicillin-resistant),>64 µg/mL
CNC(=O)CC1NC(=O)c2csc(n2)-c2ccc(-c3nc(C4=NC(C(=O)N5CCCC5C(N)=O)CO4)cs3)nc2-c2csc(n2)-c2csc(n2)C(C(O)c2ccccc2)NC(=O)CNC(=O)c2nc(sc2CO)C(C(C)C)NC(=O)c2nc1sc2C,ATCC 33591 (methicillin-resistant),0.125 µg/mL
CC[C@H]1OC(=O)C[C@@H](O)[C@H](C)[C@@H](O[C@@H]2O[C@H](C)[C@@H](O)[C@H](N(C)C)[C@H]2O)C(C=O)C[C@@H](C)C(=O)/C=C/C(C)=C/[C@@H]1COC(=O)Nc1ccc(OC)cc1,25923 (erythromycin-susceptible),1 µg/mL
COC(=O)NCc1nnc(-c2ccc(N3C[C@H](CNC(C)=S)OC3=O)cc2F)s1,UC9213 (methicillin-susceptible),<0.5 µg/mL
O=C1O[C@@H](COc2ccccn2)CN1c1ccc(C2=CCOCC2)c(F)c1,004 (methicillin quinolone-resistant),0.5 µg/mL
CC[C@H]1OC(=O)C[C@@H](O)[C@H](C)[C@@H](O[C@@H]2O[C@H](C)[C@@H](O)[C@H](N(C)C)[C@H]2O)C(C=O)C[C@@H](C)C(=O)/C=C/C(C)=C/[C@@H]1COC(=O)Nc1ccc([N+](=O)[O-])cc1,25923 (erythromycin-susceptible),1 µg/mL
CC(=S)NC[C@H]1CN(c2ccc(-c3nnc(CNC=O)s3)c(F)c2)C(=O)O1,UC9213 (methicillin-susceptible),<0.5 µg/mL
CN1CCN(c2cc3c(cc2F)c(=O)c(C(=O)O)cn3C2CC2)CC1,ATCC 5278 (methicillin-resistant),1.56 µg/mL

The last 9 rows once more:

{"SMILES": "CS(=O)(=O)N[C@H]1CCN(c2ccc(N3C[C@H](CNc4ccon4)OC3=O)cc2F)C1", "strain or isolate": "078 (oxford)", "value": "0.25 µg/mL"}
{"SMILES": "CC[C@H]1OC(=O)[C@H](C)C(=O)[C@H](C)[C@@H](O[C@@H]2O[C@H](C)C[C@H](N(C)C)[C@H]2O)[C@@]2(C)C[C@@H](C)C(=NC(C)=O)[C@H](C)C(OC/C=C/CO2)[C@]1(C)O", "strain or isolate": "33591 (erythromycin methicillin-resistant)", "value": ">64 µg/mL"}
{"SMILES": "CNC(=O)CC1NC(=O)c2csc(n2)-c2ccc(-c3nc(C4=NC(C(=O)N5CCCC5C(N)=O)CO4)cs3)nc2-c2csc(n2)-c2csc(n2)C(C(O)c2ccccc2)NC(=O)CNC(=O)c2nc(sc2CO)C(C(C)C)NC(=O)c2nc1sc2C", "strain or isolate": "ATCC 33591 (methicillin-resistant)", "value": "0.125 µg/mL"}
{"SMILES": "CC[C@H]1OC(=O)C[C@@H](O)[C@H](C)[C@@H](O[C@@H]2O[C@H](C)[C@@H](O)[C@H](N(C)C)[C@H]2O)C(C=O)C[C@@H](C)C(=O)/C=C/C(C)=C/[C@@H]1COC(=O)Nc1ccc(OC)cc1", "strain or isolate": "25923 (erythromycin-susceptible)", "value": "1 µg/mL"}
{"SMILES": "COC(=O)NCc1nnc(-c2ccc(N3C[C@H](CNC(C)=S)OC3=O)cc2F)s1", "strain or isolate": "UC9213 (methicillin-susceptible)", "value": "<0.5 µg/mL"}
{"SMILES": "O=C1O[C@@H](COc2ccccn2)CN1c1ccc(C2=CCOCC2)c(F)c1", "strain or isolate": "004 (methicillin quinolone-resistant)", "value": "0.5 µg/mL"}
{"SMILES": "CC[C@H]1OC(=O)C[C@@H](O)[C@H](C)[C@@H](O[C@@H]2O[C@H](C)[C@@H](O)[C@H](N(C)C)[C@H]2O)C(C=O)C[C@@H](C)C(=O)/C=C/C(C)=C/[C@@H]1COC(=O)Nc1ccc([N+](=O)[O-])cc1", "strain or isolate": "25923 (erythromycin-susceptible)", "value": "1 µg/mL"}
{"SMILES": "CC(=S)NC[C@H]1CN(c2ccc(-c3nnc(CNC=O)s3)c(F)c2)C(=O)O1", "strain or isolate": "UC9213 (methicillin-susceptible)", "value": "<0.5 µg/mL"}
{"SMILES": "CN1CCN(c2cc3c(cc2F)c(=O)c(C(=O)O)cn3C2CC2)CC1", "strain or isolate": "ATCC 5278 (methicillin-resistant)", "value": "1.56 µg/mL"}